A mixed list of measured activities; the numbers were collected in NIAID ChemDB.

Shared fields: target-level tests; species: HIV-1; target: Reverse transcriptase; read-out: IC50

ICn is the concentration giving n% inhibition. An empty or dashed field is not shown. Neighbouring rows are from separate reports.

compound | mutations | strain or isolate | value
Cc1ccc(NC(=S)N[C@H](C)c2cccc3ccccc23)nc1 |  |  | 0.45 µM
Nc1nc2c(ncn2[C@H]2CC[C@@H](COP(=O)(O)OP(=O)(O)OP(=O)(O)O)O2)c(=O)[nH]1 | RT-E138K |  | 0.022 µM
Nc1ccccc1NC(=O)CSc1sc(Cl)nc1-c1ccc(Br)cc1Br |  |  | >355 µM
CC(C)=CCN1Cc2cccc3[nH]c(=S)n(c23)C[C@@H]1C | RT-E138K |  | 0.83 µM
C[C@H](CCC(=O)O)[C@H]1CC[C@H]2[C@@H]3CC[C@@H]4C[C@H](OS(=O)(=O)O)CC[C@]4(C)[C@H]3CC[C@]12C |  |  | 90 µM
S=C(NCCc1ccc(Br)s1)Nc1nc2ccccc2s1 |  |  | >100 µM
CN(C)P(=O)(c1ccccc1)c1c(C(N)=O)[nH]c2ccc(Cl)cc12 | RT-Y181C |  | >3.57 µM
Cc1ccc(S(=O)(=O)c2cccc(N)c2C#N)cc1 |  |  | 0.2 µM
CC(C)Nc1cccnc1N1CCN(C(=O)c2cc3cc4c(cc3[nH]2)OCO4)CC1 |  | IIIB | 0.56 µM
CC(=O)Oc1ccc(/C=C/C(=O)Oc2c(-c3ccc(Cl)cc3)oc3ccccc3c2=O)cc1OC(C)=O |  |  | >100 µM
O=C(O)P(O)(O)=S |  |  | 0.7 µM
COc1cc(/C=C/C(=O)Oc2c(-c3ccc(Cl)cc3)oc3ccccc3c2=O)ccc1OC(C)=O |  |  | >100 µM
O=S1(c2ccc(Cl)cc2)=NC(=S)Nc2ccc(Cl)cc21 |  |  | 4.4 µM
S=C(NCCc1ccc(Br)s1)Nc1ccc(Br)cn1 |  |  | 0.92 µM
CCOC(=O)Cc1csc(NC(=S)NC(CC)c2ccccc2)n1 |  |  | 17.5 µM
Cc1cnc(NC(=S)NCCc2ccc(Br)s2)s1 |  |  | 4.3 µM
O=S1(c2ccccc2)=NC(=S)Nc2ccc(Cl)cc21 |  |  | >0.4 µM
N#Cc1cccc(S(=O)(=O)c2cccc(N)c2C#N)c1 |  |  | 6 µM
Nc1nc2c(ncn2[C@H]2CO[C@@H](COP(=O)(O)OP(=O)(O)OP(=O)(O)O)O2)c(=O)[nH]1 |  |  | 0.062 µM
Cc1c(Sc2ccccc2)n(COCCO)c(=O)[nH]c1=O | RT-H221Y |  | ~2 µM
Cc1cc(Br)cc(S(=O)(=O)c2cccc(N)c2C#N)c1 |  |  | 0.007 µM
COc1cc(C(=O)Oc2c(-c3ccc(Cl)c(Cl)c3)oc3ccccc3c2=O)cc(OC)c1OC(C)=O |  |  | >100 µM
COc1ccccc1N1CCN(C(=O)c2cc3cc4c(cc3[nH]2)OCO4)CC1 | RT-P236L | IIIB | >>50 µM
N#Cc1c(N)cccc1S(=O)(=O)c1cc(Cl)ccc1Cl |  |  | 5.3 µM
O=S1(c2ccccc2)=NC(=S)Nc2ccccc21 |  |  | 1.2 µM
C[C@H](NC(=S)Nc1nc2ccccc2s1)c1cccc2ccccc12 |  |  | >100 µM
N#Cc1c(N)cccc1S(=O)(=O)c1ccccc1Cl |  |  | 7.3 µM
COc1cc([C@@H]2c3cc4c(cc3[C@@H](O[C@@H]3O[C@@H]5CO[C@@H](C)O[C@H]5[C@H](O)[C@H]3O)[C@H]3COC(=O)[C@H]23)OCO4)cc(OC)c1O |  |  | >100 µM
C[C@H](CCC(=O)O)[C@H]1CC[C@H]2[C@@H]3[C@H](O)C[C@@H]4C[C@H](O)CC[C@]4(C)[C@H]3C[C@H](O)[C@]12C |  |  | >1000 µM
COc1cc(C(=O)Oc2c(-c3ccc(Cl)c(Cl)c3)oc3ccccc3c2=O)ccc1O |  |  | >100 µM
S=C(NCCc1ccc(Br)s1)Nc1ccccn1 |  |  | 1.24 µM
O=C(/C=C/c1ccc(O)c(O)c1)Oc1c(-c2ccc(Cl)cc2)oc2ccccc2c1=O |  |  | >100 µM
Cc1cccc(NC(=S)NCCc2ccc(Br)s2)n1 |  |  | 12.5 µM
COc1cc(C(=O)Oc2c(-c3ccc(Cl)cc3)oc3ccccc3c2=O)ccc1O |  |  | >100 µM
CCOc1ccccc1N1CCN(C(=O)c2cc3cc4c(cc3[nH]2)OCO4)CC1 |  | IIIB | 5.6 µM
O=C(Oc1c(-c2ccc(Cl)cc2)oc2ccccc2c1=O)c1cc(O)c(O)c(O)c1 |  |  | 100 µM
Cc1csc(NC(=S)N[C@H](C)c2ccccc2)n1 |  |  | 0.8 µM
O=c1c(O)c(-c2ccc(Cl)c(Cl)c2)oc2ccccc12 |  |  | >100 µM
C[C@H](CCC(=O)NCC(=O)O)[C@H]1CC[C@H]2[C@@H]3CC[C@@H]4C[C@H](OS(=O)(=O)O)CC[C@]4(C)[C@H]3CC[C@]12C |  |  | 94 µM

The last 3 rows once more:

compound | mutations | strain or isolate | value
Cc1csc(NC(=S)N[C@H](C)c2ccccc2)n1 |  |  | 0.8 µM
O=c1c(O)c(-c2ccc(Cl)c(Cl)c2)oc2ccccc12 |  |  | >100 µM
C[C@H](CCC(=O)NCC(=O)O)[C@H]1CC[C@H]2[C@@H]3CC[C@@H]4C[C@H](OS(=O)(=O)O)CC[C@]4(C)[C@H]3CC[C@]12C |  |  | 94 µM